Test [1] concerns the target recombinant NgFabI protein (Neisseria gonorrhoeae, UniProt A0ACH0F547). The following applies: read-out: NgFabI IC50.
Test [2] has as its system N. gonorrhoeae. In words: MIC determination, agar dilution (CLSI). Format: cell-based, Neisseria gonorrhoeae. A general note: Agar dilution tests growth on a series of plates holding different concentrations.
The mark [3] stands for this setting: screening panel N. gonorrhoeae isolate A.
Setting [4] is: screening panel N. gonorrhoeae isolate B.
Setting [5] is: screening panel N. gonorrhoeae isolate C.
Where [6] appears, read: screening panel N. gonorrhoeae isolate D.
Setting [7] is: screening panel N. gonorrhoeae isolate E.
The mark [8] stands for this setting: screening panel N. gonorrhoeae isolate F.
Setting [9] is: screening panel N. gonorrhoeae isolate G.
Where [10] appears, read: screening panel N. gonorrhoeae isolate H.
Setting [11] is: screening panel N. gonorrhoeae isolate I.
Where [12] appears, read: screening panel N. gonorrhoeae isolate J.
[13] abbreviates: screening panel N. gonorrhoeae isolate K.
[14] abbreviates: screening panel N. gonorrhoeae isolate L.
Setting [15] is: screening panel N. gonorrhoeae isolate M.
[16] abbreviates: screening panel N. gonorrhoeae isolate N.

The chains behind the UniProt entries cited, without tags or fusion partners. Residues count along the entry.
UniProt A0ACH0F547, 1-261: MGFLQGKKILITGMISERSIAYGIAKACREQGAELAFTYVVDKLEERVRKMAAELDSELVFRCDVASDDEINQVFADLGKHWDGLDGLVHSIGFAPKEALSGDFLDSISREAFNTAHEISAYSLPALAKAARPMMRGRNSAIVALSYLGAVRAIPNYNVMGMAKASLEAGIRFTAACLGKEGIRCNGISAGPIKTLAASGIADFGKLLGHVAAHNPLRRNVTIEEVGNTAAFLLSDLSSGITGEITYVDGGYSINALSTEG

pIC50: −log10 of the molar value. In brackets after ≈: the same amount, converted by molar mass.

One may read the pIC50 as the IC50 on a negative log10 scale, so that one unit is a factor of ten.

As for `Cc1c(CN(C)C(=O)/C=C/c2cnc3c(c2)NCC(O)C(=O)N3)oc2ccccc12` (single isomer, unassigned) [Compound 7], the pIC50 in test [1] was 8.72. Besides, the Minimum inhibitory concentration in test [2] (setting [3]) turned out to be 0.125 µg/mL (≈ 0.308 µM); in test [2] (setting [4]), 0.06 µg/mL (≈ 0.148 µM); in test [2] (setting [5]), 0.06 µg/mL (≈ 0.148 µM); in test [2] (setting [6]), 0.06 µg/mL (≈ 0.148 µM); in test [2] (setting [7]), 0.03 µg/mL (≈ 0.0738 µM); in test [2] (setting [8]) it was 0.125 µg/mL (≈ 0.308 µM). Moreover, the Minimum inhibitory concentration in test [2] (setting [9]) came out at 0.125 µg/mL (≈ 0.308 µM); in test [2] (setting [10]), 0.125 µg/mL (≈ 0.308 µM); in test [2] (setting [11]), 0.06 µg/mL (≈ 0.148 µM); in test [2] (setting [12]), 0.125 µg/mL (≈ 0.308 µM); in test [2] (setting [13]) it was 0.25 µg/mL (≈ 0.615 µM); in test [2] (setting [14]) it was 0.125 µg/mL (≈ 0.308 µM). Also, the Minimum inhibitory concentration in test [2] (setting [15]) and in test [2] (setting [16]) was 0.06 µg/mL (≈ 0.148 µM) throughout.
Regarding `Cc1c(CN(C)C(=O)/C=C/c2cnc3c(c2)NCC(O)C(=O)N3)oc2ccccc12` (single isomer, unassigned) [Compound 8], the pIC50 in test [1] was 7.82. Moreover, the Minimum inhibitory concentration in test [2] (setting [3]) was determined as 1 µg/mL (≈ 2.46 µM); in test [2] (setting [4]), 0.5 µg/mL (≈ 1.23 µM); in test [2] (setting [5]), 0.5 µg/mL (≈ 1.23 µM); in test [2] (setting [6]) it was 0.5 µg/mL (≈ 1.23 µM); in test [2] (setting [7]), 0.25 µg/mL (≈ 0.615 µM); in test [2] (setting [8]), 1 µg/mL (≈ 2.46 µM). Further, the Minimum inhibitory concentration amounted to 1 µg/mL (≈ 2.46 µM) in test [2] (setting [9]); 1 µg/mL (≈ 2.46 µM) in test [2] (setting [10]); 0.5 µg/mL (≈ 1.23 µM) in test [2] (setting [11]); 0.5 µg/mL (≈ 1.23 µM) in test [2] (setting [12]); 1 µg/mL (≈ 2.46 µM) in test [2] (setting [13]); 0.5 µg/mL (≈ 1.23 µM) in test [2] (setting [14]). In addition, the values for the Minimum inhibitory concentration in test [2] (setting [15]) and in test [2] (setting [16]) were 1 µg/mL (≈ 2.46 µM) and 0.5 µg/mL (≈ 1.23 µM), respectively.
